Results of unrelated studies side by side (data: NIAID ChemDB).

Shared fields: growth or infection tests; species: Mycobacterium tuberculosis

Inhibition is in % at the dose shown (toxicity tests: loss of growth or viability). Blank or dashed fields: not listed here. MIC50, MIC90 and the like: level of inhibition, or share of isolates inhibited. MIC bound comes from a single tested concentration. ECn: concentration that inhibits the pathogen or its effect by n%. Two numbers with a dash give a range or band. Conditions beyond the fields shown may differ between rows.

structure | read by | read-out | dose | strain or isolate | changes | value
O=[N+]([O-])c1cn2c(n1)OC[C@@H](OCc1ccc(Oc3ccc(OC(F)(F)F)cc3)cc1)C2 | low oxygen | MIC90 | - | - | - | 0.87 µM
COc1ccc(-c2nc(NCCCN3CCOCC3)[nH]c(=O)c2C#N)cc1 | - | MIC | - | H37Ra | - | >50 µg/mL
CO[C@H]1/C=C/O[C@@]2(C)Oc3c(C)c(O)c4c(O)c(c(/C=N/N5CCN(C/C=C/c6ccccc6)CC5)c(O)c4c3C2=O)NC(=O)/C(C)=C\C=C\[C@H](C)[C@H](O)[C@@H](C)[C@@H](O)[C@@H](C)[C@H](OC(C)=O)[C@@H]1C | - | MIC | - | 2218 (MDR) | - | 0.5 µg/mL
CC(C)c1cc2c(cc1O)[C@@]1(C)CCCC(C)(C)C1CC2 | - | inhibition | 12.5 µg/mL | H37Rv | - | 0%
O=[N+]([O-])c1cn2c(n1)OC[C@@H](OCc1cccc(C#Cc3ccc(C(F)(F)F)cc3)c1)C2 | resazurin | MIC90 | - | - | - | 0.21 µM
Cc1nc2c(=O)n(C)c(=O)nc-2n(-c2ccc(Cl)cc2)c1C | BACTEC | MIC bound | - | H37Rv | - | >12.5 µg/mL
CC1(C)CCc2c(c3ccccc3c3[nH]c(-c4c[nH]c5ccccc45)nc23)O1 | resazurin | MIC | - | ATCC 35338 | - | 6.25 µg/mL
NNC(=O)c1oc2ccccc2c1CN(CCO)CCO | BACTEC | inhibition | 12.5 µg/mL | H37Rv | - | 23%
Cc1ccc(-n2c(=O)oc3ccc(Br)cc3c2=O)cc1 | - | MIC | - | H37Rv | - | 37 µM
CC1c2ccccc2-c2ccccc2N1C(=O)c1cccc(C(=O)N2c3ccccc3-c3ccccc3C2C)n1 | BACTEC | inhibition | 12.5 µg/mL | H37Rv | - | -2%
CO[C@H]1/C=C/O[C@@]2(C)Oc3c(C)c(O)c4c(O)c(c(/C=N/N5CCN(C6CCCC6)CC5)c(O)c4c3C2=O)NC(=O)/C(C)=C\C=C\[C@H](C)[C@H](O)[C@@H](C)[C@@H](O)[C@@H](C)[C@H](OC(C)=O)[C@@H]1C | - | MIC | - | H37Rv (isoniazid-resistant) | - | 5 µg/mL
O=[N+]([O-])c1cn2c(n1)OC[C@@H](OCc1ccc(Oc3ccc(F)cc3)cc1)C2 | low oxygen | MIC90 | - | - | - | 1 µM
CCc1c2c(nc3ccc(OCc4ccc(F)c(F)c4F)cc13)-c1cc3c(c(=O)n1C2)COC(=O)C3(O)CC | resazurin | MIC | - | XDR | Extensively drug-resistant | 23.31 µM
CC#CC#C/C=C1\C=CC2(OC=CC2OC(C)=O)O1 | - | MIC | - | PZA-R | - | 12.5 µg/mL
O=[N+]([O-])c1cn2c(n1)OC[C@@H](OCc1ccc(COc3ccc(OC(F)(F)F)cc3)nc1)C2 | low oxygen | MIC90 | - | - | - | 5.9 µM
COc1ccc(-c2nc(NC3CCCCC3)[nH]c(=O)c2C#N)cc1 | - | MIC | - | H37Ra | - | >50 µg/mL
CCOC(=O)c1c(NC(=O)c2c(F)c(F)c(F)c(F)c2F)sc(C(N)=O)c1C | - | MIC | - | - | - | 0.5 µM
COc1cc(C(=O)NN=C(C)C)cc(OC)c1OC | BACTEC | MIC bound | - | H37Rv | - | >12.5 µg/mL
NCc1ccccc1CC(=O)N[C@@H]1C(=O)N2C(C(=O)O)=C(CSc3nnnn3CC(=O)O)CS[C@H]12 | BACTEC | inhibition | 100 µg/mL | 8 strains | - | 100%
CCOC(=O)c1sc(NC(=O)c2c(F)c(F)c(F)c(F)c2F)c(C(=O)OCC)c1C | - | MIC | - | - | - | 7.1 µM
O=[N+]([O-])c1cn2c(n1)OC[C@@H](OCc1ccnc(N3CCN(c4ccc(C(F)(F)F)cn4)CC3)c1)C2 | low oxygen | MIC90 | - | - | - | 4.8 µM
O=C(NCc1cccc(Br)c1)c1nnc(-c2ccccn2)[nH]c1=O | - | MIC | - | H37Rv | - | >32 µg/mL
CC(=O)Oc1c(C/C=C(\C)CC/C=C(\C)CCC=C(C)C)c(=O)oc2ccccc12 | - | inhibition | 12.5 µg/mL | H37Rv | - | 0%
COc1ccc(-c2nc(NC3CCCCCC3)[nH]c(=O)c2C#N)cc1 | - | MIC | - | H37Ra | - | >50 µg/mL
O=C1NC(c2ccc(F)cc2)=CC(c2cccc(Oc3ccccc3)c2)N1 | resazurin | inhibition | 6.25 µg/mL | H37Rv | - | 89%
O=[N+]([O-])c1cn2c(n1)OC[C@@H](OCc1ccc(N3CCN(c4ccc(OC(F)(F)F)cc4)CC3)nc1)C2 | resazurin | MIC90 | - | - | - | 0.05 µM
O=C1SCCN1/N=C/c1ccc([N+](=O)[O-])o1 | resazurin | MIC bound | - | H37Rv | - | >6.25 µg/mL
COc1ccc(C2=CC(c3cccc(Oc4ccccc4)c3)N=C(N)N2)cc1 | resazurin | MIC | - | H37Rv | - | 1.25 µg/mL
Cc1ccc(S(=O)(=O)Oc2ccc3oc4c(CO)ccc(NCCN(C)C)c4c(=O)c3c2)cc1 | BACTEC | MIC bound | - | H37Rv | - | >12.5 µg/mL
CCCn1cnc2cc(NCc3ccc(Cl)cc3Cl)ccc21 | GFP | inhibition | 16 µM | - | - | 90%
Cc1cn2c(C(=O)NCc3ccc(C(F)(F)F)cc3)c(C)nc2s1 | resazurin / fluorescence | MIC | - | H37Rv | QcrB6 A317T | 4.7 µM
CN1CCN(c2nc(-c3cccnc3)c(C#N)c(=O)[nH]2)CC1 | - | MIC | - | H37Ra | - | >50 µg/mL
CC1CCC2C(C1)c1c(c3ccccc3c3nc4ccccc4nc13)OC2(C)C | resazurin | MIC | - | ATCC 35338 | - | 6.25 µg/mL
Cc1cn2c(C(=O)NCc3ccc(N4CCC(c5ccc(OC(F)(F)F)cc5)CC4)cc3)c(C)nc2s1 | resazurin / fluorescence | MIC | - | H37Rv | K14b00DS | 0.047 µM
Cc1ccc(-n2c(=O)oc3ccccc3c2=O)cc1 | - | MIC | - | H37Rv | - | 111 µM
COc1c(C)n(CCO)ccc1=O | BACTEC | MIC bound | - | H37Rv | - | >12.5 µg/mL
CCc1c2c(nc3ccc(OCc4cc(OC)ccc4Br)cc13)-c1cc3c(c(=O)n1C2)COC(=O)C3(O)CC | resazurin | MIC | - | XDR | Extensively drug-resistant | 21.18 µM
CN(C)c1ccc(CNC23CC4CC(CC(C4)C2)C3)cc1 | - | MIC | - | - | - | 10 µM
Cc1cn2c(C(=O)NCc3ccc(N4CCOCC4)c(F)c3)c(C)nc2s1 | luminescence | MIC | - | H37Rv | - | >100 µM
O=c1oc2ccccc2c(=O)n1-c1ccc(Br)cc1 | - | MIC | - | H37Rv | - | 37 µM
Cc1cc(C)nc(NS(=O)(=O)c2ccc(N3C(=O)c4ccccc4C3=O)cc2)n1 | resazurin | MIC90 | - | H37Rv | - | 125 µg/mL
Cc1ccn2nc(C)c(C(=O)NCc3ccc(-c4ccc(OC(F)(F)F)cc4)nc3)c2c1 | resazurin | MIC | - | RIF-R1 | rpoB mutant rifampicin-resistant | 0.009 µg/mL
N#Cc1c(-c2cccnc2)nc(N2CCOCC2)[nH]c1=O | - | MIC | - | H37Ra | - | >50 µg/mL
COc1ccc(-n2c(=O)oc3ccccc3c2=O)cc1 | - | MIC | - | H37Rv | - | 111 µM
COc1ccc(N=C2C(=Nc3ccc(OC)cc3)N(S(=O)(=O)c3ccccc3)C(=S)N2c2ccccc2)cc1 | BACTEC | inhibition | 12.5 µg/mL | H37Rv | - | 0%
CCc1c2c(nc3ccc(OCc4cc(F)cc(Cl)c4)cc13)-c1cc3c(c(=O)n1C2)COC(=O)C3(O)CC | resazurin | MIC | - | H37Rv | - | 5.84 µM
COc1cccc(CNC(=O)c2nnc(-c3ccccn3)[nH]c2=O)c1 | - | MIC | - | H37Rv | - | 32 µg/mL
O=C1NC(c2ccc(Cl)cc2Cl)=CC(c2cccc(Oc3ccccc3)c2)N1 | resazurin | inhibition | 6.25 µg/mL | H37Rv | - | 74%
COc1ccc(-n2c(=O)oc3ccc(Br)cc3c2=O)cc1 | - | MIC | - | H37Rv | - | 74 µM
COc1ccccc1CNC(=O)c1nnc(-c2ccccn2)[nH]c1=O | - | MIC | - | H37Rv | - | 32 µg/mL
N#Cc1c(-c2cccnc2)nc(NCCO)[nH]c1=O | - | MIC | - | H37Ra | - | >50 µg/mL
Nc1ccc2c(c1N)Oc1ccccc1O2 | resazurin | MIC bound | - | H37Rv | - | >6.25 µg/mL
O=C1NC(c2ccc([N+](=O)[O-])cc2)=CC(c2cccc(Oc3ccccc3)c2)N1 | resazurin | inhibition | 6.25 µg/mL | H37Rv | - | 51%
O=[N+]([O-])c1ccc(N/N=C/c2ccccc2O)nc1 | BACTEC | MIC bound | - | H37Rv | - | >12.5 µg/mL
CN1CCN(c2cc3c(cc2F)c(=O)c(C(=O)O)cn3-c2ccc(F)cc2)CC1 | BACTEC | EC50 | - | 12 strains | - | <100 µg/mL
CC1C(=O)OC2CC[N+]3(C)CC=C(COC(=O)C(C)(O)C1(C)O)C23.[Br-] | BACTEC | MIC | - | H37Rv | - | ≥12.5 µg/mL
CCc1c(C)sc(NC(=O)c2c(F)c(F)c(F)c(F)c2F)c1C(=O)OC(C)C | - | MIC | - | - | - | 1 µM
COC(=O)[C@H]1[C@H]2C[C@@H]3c4[nH]c5ccccc5c4CCN3C[C@H]2C[C@@H](OC(=O)c2cc(OC)c(OC)c(OC)c2)[C@@H]1OC | BACTEC | MIC | - | H37Rv | - | ≥12.8 µg/mL
COC1CC(=O)c2cccc(O)c2C1=O | - | MIC | - | H37Rv | - | 0.2 µg/mL
CC1(C)CCc2c(c3ccccc3c3[nH]c(-c4ccccc4)nc23)O1 | resazurin | MIC | - | H37Rv | - | >100 µg/mL
CCc1c2c(nc3ccc(OCc4ccc(OC)c(F)c4)cc13)-c1cc3c(c(=O)n1C2)COC(=O)C3(O)CC | resazurin | MIC | - | H37Rv | - | 23.56 µM
O=c1[nH][nH]c(=O)c2c1nc(SCCc1ccccc1)n2Cc1ccccc1 | BACTEC | MIC bound | - | H37Rv | - | >12.5 µg/mL
C[C@@H](O)[C@H]1C(=O)N2C(C(=O)O)=C(SCCN=CN)C[C@H]12 | BACTEC | EC50 | - | 9 strains | - | <100 µg/mL
CCn1c2ccccc2c2cc(NC(=O)NC(=O)c3ccccc3)ccc21 | BACTEC | inhibition | 12.5 µg/mL | H37Rv | - | 87%
CO/N=C(\C(=O)N[C@@H]1C(=O)N2C(C(=O)O)=C(COC(C)=O)CS[C@H]12)c1csc(N)n1 | BACTEC | inhibition | 100 µg/mL | 12 strains | - | 75%
O=C(COc1ccccc1Cl)N1N=C(c2ccccc2)CC1(O)c1ccccc1 | BACTEC | MIC bound | - | H37Rv | - | >12.5 µg/mL
CCc1c2c(nc3ccc(OCc4ccccc4C(F)(F)F)cc13)-c1cc3c(c(=O)n1C2)COC(=O)C3(O)CC | resazurin | MIC | - | XDR | Extensively drug-resistant | 11.32 µM
Cc1nc2c(n1C)C(=O)c1ccccc1C2=O | resazurin | MIC bound | - | H37Rv | - | >6.25 µg/mL
Cc1ccc(/C=C2\CN(C)CC3=C2NC(=S)NC3c2ccc(C)cc2)cc1 | agar | MIC99 | - | - | - | 5.6 µM
NNC(=O)c1ccncc1 | BACTEC / broth dilution / radiometric | MIC | - | ATCC 25177 | - | 0.1 µg/mL
C/C(=N\NC(=O)c1cccnc1)c1cccc(/C(C)=N/NC(=O)c2cccnc2)n1 | - | MIC | - | EMB-R | - | >12.5 µg/mL
Cc1cn2c(C(=O)NCc3ccc(N4CCN(c5ccc(C(F)(F)F)cn5)CC4)c(F)c3)c(C)nc2s1 | resazurin / fluorescence | MIC | - | H37Rv | - | 0.004 µM
CO[C@H]1/C=C/O[C@@]2(C)Oc3c(C)c(O)c4c(O)c(c5c(c4c3C2=O)NC2(CCN(CC(C)C)CC2)N=5)=NC(=O)/C(C)=C\C=C\[C@H](C)[C@H](O)[C@@H](C)[C@@H](O)[C@@H](C)[C@H](OC(C)=O)[C@@H]1C | - | MIC | - | 1 isolates (Asp516Val) | - | 0.5 µg/mL
CN(Cc1ccc(CO[C@@H]2COc3nc([N+](=O)[O-])cn3C2)cc1)c1ccc(OC(F)(F)F)cc1 | resazurin | MIC90 | - | - | - | 0.03 µM
N#Cc1c(-c2ccc(F)cc2)nc(N2CCN(c3ccccc3)CC2)[nH]c1=O | - | MIC | - | H37Ra | - | 25–50 µg/mL
O=C(NCc1cccc(Cl)c1)c1nnc(-c2ccccn2)[nH]c1=O | - | MIC | - | H37Rv | - | >32 µg/mL
CC(=O)OCCn1c([N+](=O)[O-])cnc1/C=[N+](\[O-])CCOC(C)=O | resazurin | MIC bound | - | H37Rv | - | >6.25 µg/mL
CCc1c2c(nc3ccc(OCc4cccc(F)c4)cc13)-c1cc3c(c(=O)n1C2)COC(=O)C3(O)CC | resazurin | MIC | - | XDR | Extensively drug-resistant | 49.94 µM
CCCNc1nc(-c2ccc(OC)cc2)c(C#N)c(=O)[nH]1 | - | MIC | - | H37Ra | - | >50 µg/mL

For reference, 6 entries again:

| structure | read by | read-out | dose | strain or isolate | changes | value |
|---|---|---|---|---|---|---|
| Cc1cn2c(C(=O)NCc3ccc(N4CCN(c5ccc(C(F)(F)F)cn5)CC4)c(F)c3)c(C)nc2s1 | resazurin / fluorescence | MIC | - | H37Rv | - | 0.004 µM |
| Cc1nc2c(=O)n(C)c(=O)nc-2n(-c2ccc(Cl)cc2)c1C | BACTEC | MIC bound | - | H37Rv | - | >12.5 µg/mL |
| COc1ccc(-n2c(=O)oc3ccc(Br)cc3c2=O)cc1 | - | MIC | - | H37Rv | - | 74 µM |
| CCc1c2c(nc3ccc(OCc4cc(F)cc(Cl)c4)cc13)-c1cc3c(c(=O)n1C2)COC(=O)C3(O)CC | resazurin | MIC | - | H37Rv | - | 5.84 µM |
| CC1(C)CCc2c(c3ccccc3c3[nH]c(-c4c[nH]c5ccccc45)nc23)O1 | resazurin | MIC | - | ATCC 35338 | - | 6.25 µg/mL |
| O=[N+]([O-])c1cn2c(n1)OC[C@@H](OCc1ccnc(N3CCN(c4ccc(C(F)(F)F)cn4)CC3)c1)C2 | low oxygen | MIC90 | - | - | - | 4.8 µM |